Measurements published in patent publication US20160145321A1 (CRUCELL HOLLAND B V, published 2016).

T1: G protein of RSV B/18537 (virus, ATCC Cat. No. VR-1580) (Respiratory syncytial virus B/18537, UniProt P20896 1-292)
T1 sequence: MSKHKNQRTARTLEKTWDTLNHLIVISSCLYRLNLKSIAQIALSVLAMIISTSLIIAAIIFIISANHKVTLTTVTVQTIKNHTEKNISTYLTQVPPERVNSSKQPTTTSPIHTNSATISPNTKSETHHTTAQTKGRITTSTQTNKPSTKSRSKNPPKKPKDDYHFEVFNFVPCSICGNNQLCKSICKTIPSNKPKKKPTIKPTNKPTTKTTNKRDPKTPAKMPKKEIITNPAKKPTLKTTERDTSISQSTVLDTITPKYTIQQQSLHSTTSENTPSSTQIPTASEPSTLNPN

T2: G protein of RSV A/A2 (virus, ATCC Cat. No. VR-1540) (Respiratory syncytial virus A/A2, UniProt P03423 1-298)
T2 sequence: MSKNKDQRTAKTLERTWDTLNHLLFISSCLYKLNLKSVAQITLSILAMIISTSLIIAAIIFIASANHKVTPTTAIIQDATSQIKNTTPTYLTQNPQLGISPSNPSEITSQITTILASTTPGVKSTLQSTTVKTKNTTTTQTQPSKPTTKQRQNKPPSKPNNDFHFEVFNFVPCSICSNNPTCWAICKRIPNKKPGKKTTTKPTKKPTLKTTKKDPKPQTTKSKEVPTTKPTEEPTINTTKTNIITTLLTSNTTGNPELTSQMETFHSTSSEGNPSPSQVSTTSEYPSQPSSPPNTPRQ

B1: CB048.3 (antibody, V domains shown)
VH: QVQLVESGGGVVQPGRSLRLSCAASGFTFSNHGMHWVRQAPGKGLEWVAVISYDGNKKYYADSVKGRFTVSRDNSKNTLSLQMDSLRAEDTAIYYCAKTTFYFDDSNYYEYLDYWGQGTLVTVSS
VL: DIQLTQSPSFLSASVGDRVTITCRASQGIRSYLAWYQQKPGKAPKLLIYAASTLQSGVPSRFSGGGSGTEFTLTISSLQPEDSATYYCQQLNTSPPYTFGQGTKLEIK
B2: CB058.1 (antibody, V domains shown)
VH: EVQLVESGGGLVQPGGSLRLSCVASGFTFSSYAMSWVRQAPGKGLEWVSAIRGSVDNTYYADSVKGRFTISRDNSKNTLYLQMNSLRVEDTAVYYCAKDPALYCSGETCFSDLTDWGQGTLVTVSS
VL: DIQMTQSPSSLSASVGDRVTITCRASQGINNYLAWFQQKPGKAPKSLIYAASTLPSGVPSRFSGSGSGTDFTLTISSLQPEDSATYFCQHYIRYPHTFGQGTKLEIK
B3: CB002.1 (antibody, V domains shown)
VH: QVQLQESGPRLVKPSETLSLTCTVSGGSTSSYFWNWIRQPPGKGLEWIGYIYGSGSADYNPSLKSRVTISIDTSKTQFSLKLTSVTAADTAVYYCARSGFCTNDACYRRGSWFDPWGQGTLVTVSS
VL: DIQMTQSPSSLSASVGDRVTITCRASQSIDNYLNWYQQKPGKAPKLLIYAASSLQSGVPSRFSGSGSGTDFTLTVSSLHPEDFATYYCQQSYSTLTWTFGQGTKVEIK
notes: also called CB2.1
B4: CB028.2 (antibody, V domains shown)
VH: QVQLVQSGAEVKKPGASVKVSCKASGYTFTTYGITWVRQAPGQGLEWMGWISGDSDNTNYAQNLQGRVTLTTDISTRTAYMELRSLKPDDTAMYYCARALAKWYCSSSSCFCGGGSCYSDYWGQGTLVTVSS
VL: DIQMTQSPSSLSASVGDRVTITCRASQGMSNYLNWYQQKPGKAPELLIYAASTLQSGVPSRFSGSGSGTDFTLTINSLQPEDFATYFCQQSFSTPLTFGGGTKVEIK

What was measured:
[1] = target: T1, G protein of RSV B/18537 (virus, ATCC …); assay: cell-based or functional assay
[2] = target: T2, G protein of RSV A/A2 (virus, ATCC Cat. …); assay: cell-based or functional assay

Binder | Neutralization IC50 (plaque reduction assay, Vero cells) [1] | Neutralization IC50 (plaque reduction assay, Vero cells) [2]
B1 | 8 ng/mL | 
B2 | 4.2 ng/mL | 
B3 | 23.4 ng/mL | 
B4 |  | 11 ng/mL
